Experiments:
Type in all cases: cell-based, human rhinovirus
Conditions in all cases: CC50 divided by EC50
HRV serotype-14 = experiment: Antirhinoviral HI-HeLa cell culture assay (XTT cell protection), HRV-14
Procedure: (§1) In the Cell Protection Assay, the ability of compounds to protect cells against HRV infection was measured by the XTT dye reduction method. This method is described in Weislow, O. S., Kiser, R., Fine, D. L., Bader, J., Shoemaker, R. H., Boyd, M. R., J. Natl. Cancer Inst. 1989, 81, 577-586, the disclosure of which is incorporated herein by reference.
(§2) Infected or mock-infected cells were resuspended at 8×10^5 cells per mL and incubated with appropriate concentrations of compounds of formula I. Two days later, XTT/PMS was added to test plates, and the amount of formazan produced was quantified spectrophotometrically at 450/650 nm. […] The therapeutic index (TI) was calculated by dividing the CC50 by the EC50.
(§3) All strains of human rhinovirus (HRV) for use in this assay were purchased from American Type Culture Collection (ATCC) except for HRV serotype-14, which was produced from the infectious cDNA clone constructed and supplied to Applicants by Dr. Robert Rueckert at the Institute for Molecular Virology, University of Wisconsin, Madison, Wis. HRV stocks were propagated, and viral assays were performed in HI-HeLa cells (ATCC). Cells were grown in Minimal Essential Medium, available from Life Technologies, with 10% fetal bovine serum.
(§4) The compounds were tested against control compounds WIN 51711, WIN 52084, and WIN 54954, all obtained from Sterling-Winthrop Pharmaceuticals, and control compound Pirodavir, obtained from Janssen Pharmaceuticals. Antiviral data obtained for the test compounds are shown in Table 2 where all data are for HRV serotype-14 unless otherwise noted in parentheses.

HRV serotype 2 = experiment: Antirhinoviral HI-HeLa cell culture assay (XTT cell protection), HRV-2
Procedure: as §1, §2, §3, §4

HRV serotype 10 = experiment: Antirhinoviral HI-HeLa cell culture assay (XTT cell protection), HRV-10
Procedure: as §1, §2
as §3, with “serum. […]” for “serum.”

HRV serotype 1A = experiment: Antirhinoviral HI-HeLa cell culture assay (XTT cell protection), HRV-1A
Procedure: as §1, §2
as §3, with “serum. […]” for “serum.”

SMILES | TI (therapeutic index) (HRV serotype-14) | TI (therapeutic index) (HRV serotype 2) | TI (therapeutic index) (HRV serotype 10) | TI (therapeutic index) (HRV serotype 1A)
CCOC(=O)/C=C/[C@H](CCC(N)=O)NC(=O)[C@@H](CC(=O)[C@H](CC(C)C)NC(=O)SCC)Cc1ccccc1 [Compound 2, Ethyl-3-(EtSCO-L-LeuΨ[COCH2]-L-Phe-L-Gln)-E-Propenoate] | >1333 | >178 |  | 
CC(C)CC(NC(=O)SCc1ccccc1)C(=O)CC(Cc1ccccc1)C(=O)NC(C=CC(=O)N1CCc2ccccc21)CCC(N)=O [Compound 3, (2,3-Dihydroindole)-3-(BnSCO-L-LeuΨ[COCH2]-L-Phe-L-Gln)-E-Propenamide] | 26 |  |  | 
CCOC(=O)/C=C/[C@H](CCC(N)=O)NC(=O)[C@@H](CC(=O)[C@@H](NC(=O)SCC)C(C)C)Cc1ccccc1 [Compound 4, Ethyl-3-(EtSCO-L-ValΨ[COCH2]-L-Phe-L-Gln)-E-Propenoate] | >3200 | >640 |  | 
CCOC(=O)/C=C/C(CCC(N)=O)NC(=O)C(CC(=O)C(NC(=O)SCc1ccccc1)C(C)C)Cc1ccccc1 [Compound 5, Ethyl-3-(BnSCO-L-ValΨ[COCH2]-L-Phe-L-Gln)-E-Propenoate] | >1730 |  |  | 
CCOC(=O)/C=C/C(CCC(N)=O)NC(=O)C(CC(=O)C(CC(C)C)NC(=O)SCc1ccccc1)Cc1ccccc1 [Compound 6, Ethyl-3-(BnSCO-L-LeuΨ[COCH2]-L-Phe-L-Gln)-E-Propenoate] | >147 |  |  | 
CCOC(=O)/C=C/[C@H](CCC(N)=O)NC(=O)[C@@H](CC(=O)[C@H](CC(C)C)NC(=O)SC1CCCC1)Cc1ccccc1 [Compound 8, Ethyl-3-(CyPentylSCO-L-LeuΨ[COCH2]-L-Phe-L-Gln)-E-Propenoate] | >526 |  |  | 
CCOC(=O)/C=C/[C@H](CCC(N)=O)NC(=O)[C@@H](CC(=O)[C@@H](NC(=O)SCC)C(C)C)Cc1ccc(C)cc1 [Compound 10, Ethyl-3-(EtSCO-L-ValΨ[COCH2]-L-(p-CH3)Phe-L-Gln)-E-Propenoate] | >91 | >57 |  | 
CCOC(=O)/C=C/C(CCC(N)=O)NC(=O)C(CC(=O)C(NC(=O)SC1CCCC1)C(C)C)Cc1ccc(C)cc1 [Compound 11, Ethyl-3-(CyPentylSCO-L-ValΨ[COCH2]-L-(p-CH3)Phe-L-Gln)-E-Propenoate] | >500 | >25 | >50 | >18
CCOC(=O)/C=C/C(CCC(N)=O)NC(=O)C(CC(=O)C(Cc1ccccc1)NC(=O)SC1CCCC1)Cc1ccc(C)cc1 [Compound 12, Ethyl-3-(CyPentylSCO-L-PheΨ[COCH2]-L-(p-CH3)Phe-L-Gln)-E-Propenoate] | >7 |  |  | 
CCOC(=O)/C=C/[C@H](CCC(N)=O)NC(=O)[C@@H](CC(=O)[C@@H](NC(=O)SCC)C(C)C)Cc1ccc(C(F)(F)F)cc1 [Compound 15, Ethyl-3-(EtSCO-L-ValΨ[COCH2]-L-(p-CF3)Phe-L-Gln)-E-Propenoate] | >15 |  |  | 
CCOC(=O)/C=C/C(CCC(N)=O)NC(=O)C(CC(=O)C(Cc1ccccc1)NC(=O)SC1CCCC1)Cc1ccc(F)cc1 [Compound 18, Ethyl-3-(CyPentylSCO-L-PheΨ[COCH2]-L-(p-F)Phe-L-Gln)-E-Propenoate] | >6 |  |  | 
CCOC(=O)/C=C/C(CCC(N)=O)NC(=O)C(CC(=O)C(CC(C)C)NC1CCCC1)Cc1ccc(F)cc1 (stereo not shown) [Compound 19] | >10 | >4 | >1.8 | >5
CCOC(=O)c1ccc(OCCC2CCN(c3ccc(C)nn3)CC2)cc1 [Pirodavir, reference compound] | >300 |  |  | 
Cc1cc(CCCCCCCOc2ccc(C3=NCCO3)cc2)on1 [WIN 51711, reference compound] | >77 |  |  | 
Cc1cc(CCCCCCCOc2ccc(C3=N[C@@H](C)CO3)cc2)on1 [WIN 52084, reference compound] | >143 |  |  | 
Cc1cc(CCCCCOc2c(Cl)cc(C3=NCCO3)cc2Cl)on1 [WIN 54954, reference compound] | >30 |  |  | 

From patent US20040072907A1, “Antipicornaviral compounds, compositions containing them, and methods for their use” (priority 1997, published 2004)
